Compound potency records, mixed from different reports. Data source: NIAID ChemDB in PubChem.

Shared fields: whole-cell or culture tests; species: Candida albicans; measure: MIC

Rows are shuffled and stem from different studies. a–b is a range or a potency band.

compound,strain or isolate,result
COc1ccc2c(Cc3ccc(C(C)(C)C)cc3)c3[n+](cc2c1OC)CCc1cc2c(cc1-3)OCO2,ATCC44373,1.56 µg/mL
CSc1cc(-c2ccc(Br)cc2)c(C(=O)O)s1,SKF,>100 µg/mL
CCCCCOc1ccc(-c2ccc(-c3ccc(C(=O)N[C@H]4CCCNC(=O)C5CCCN5C(=O)C(C(C)O)NC(=O)C(CCc5ccc(O)cc5)NC(=O)C5C[C@@H](O)CN5C(=O)C(C(C)O)NC4=O)cc3)cc2)cc1,ATCC 62376,6.25 µg/mL
CO[C@H]1C[C@@H]2CC[C@@H](C)[C@@](O)(O2)C(=O)C(=O)N2CCCC[C@H]2C(=O)O[C@H]([C@H](C)C[C@@H]2CC[C@@H](C(=O)ON(C)C)[C@H](OC)C2)CC(=O)[C@H](C)/C=C(\C)[C@@H](O)[C@@H](OC)C(=O)[C@H](C)C[C@H](C)CCCC/C=C/1C,10231,50 µg/mL
OC(c1cc(-c2ccccc2)nc2c(Cl)cc(Cl)cc12)C1CCCCN1,ATCC 90028,2.5 µg/mL
Cn1c(=O)c(-c2[nH][nH]c(=O)c2/C=N/c2cscn2)c(O)c2ccccc21,ATCC 10231,50 µg/mL
CCCCCOc1ccc(-c2ccc(-c3ccc(C(=O)N[C@H]4CCCNC(=O)C5C[C@H](NC(=O)NC)CN5C(=O)C(C(C)O)NC(=O)C(CCc5ccc(O)cc5)NC(=O)C5C[C@@H](O)CN5C(=O)C(C(C)O)NC4=O)cc3)cc2)cc1,ATCC 62376,0.2 µg/mL
C[C@H]1[C@H](O)[C@@H](C)/C=C/C=C/C=C/C=C/C=C/C=C/C=C/[C@H](O[C@@H]2O[C@H](C)[C@@H](O)[C@H](N)[C@@H]2O)C[C@@H]2O[C@](O)(C[C@@H](O)C[C@@H](O)CC[C@H](O)[C@@H](O)C[C@@H](O)CC(=O)O[C@H]1C)C[C@H](O)[C@H]2C(=O)O,ATCC64546,0.5 µg/mL
CO[C@H]1C[C@@H]2CC[C@@H](C)[C@@](O)(O2)C(=O)C(=O)N2CCCC[C@H]2C(=O)O[C@H]([C@H](C)C[C@@H]2CC[C@@H](C(=O)ON(C)OC)[C@H](OC)C2)CC(=O)[C@H](C)/C=C(\C)[C@@H](O)[C@@H](OC)C(=O)[C@H](C)C[C@H](C)CCCC/C=C/1C,579A,>100 µg/mL
CCOC(=O)c1sc2cc(-c3ccc([N+](=O)[O-])cc3)oc(=O)c2c1N,SKF,>100 µg/mL
COc1ccc(/C=c2\c(=O)[nH][nH]\c2=C2/C(=O)c3ccccc3N(C)C2=O)cc1,ATCC 10231,>100 µg/mL
CO[C@H]1C[C@@H]2CC[C@@H](C)[C@@](O)(O2)C(=O)C(=O)N2CCCC[C@H]2C(=O)O[C@H]([C@H](C)C[C@@H]2CC[C@H](c3nn[nH]n3)[C@H](OC)C2)CC(=O)[C@H](C)/C=C(\C)[C@@H](O)[C@@H](OC)C(=O)[C@H](C)C[C@H](C)CCCC/C=C/1C,579A,>100 µg/mL
CC[C@@H]([C@H](C)O)n1ncn(-c2ccc(N3CCN(c4ccc(OC[C@@H]5CO[C@@](Cn6cncn6)(c6ccc(F)cc6F)C5)cc4)CC3)cc2)c1=O,Isolate CA-11,>4 µg/mL
CCCCCCCCN1CCN(c2ccc(C(=O)N[C@H]3CCCNC(=O)C4C[C@H](N)CN4C(=O)C(C(C)O)NC(=O)C(CCc4ccc(O)cc4)NC(=O)C4C[C@@H](O)CN4C(=O)C(C(C)O)NC3=O)cc2)CC1,ATCC 62376,1.56 µg/mL
CCC(C)n1ncn(-c2ccc(N3CCN(c4ccc(OC[C@H]5CO[C@](Cn6cncn6)(c6ccc(Cl)cc6Cl)O5)cc4)CC3)cc2)c1=O,Isolate CA-2,>8 µg/mL
Cn1c(=O)c(-c2[nH][nH]c(=O)c2N=Nc2ccc(N)cc2)c(O)c2ccccc21,ATCC 10231,50 µg/mL
CCC(C)CC(C)CCCCCCCCC(=O)N[C@H]1C[C@@H](O)[C@@H](OCCN)NC(=O)[C@@H]2C[C@@H](O)CN2C(=O)[C@H]([C@H](O)CC(N)=O)NC(=O)[C@H]([C@H](O)[C@@H](O)c2ccc(O)cc2)NC(=O)[C@@H]2C[C@@H](O)CN2C(=O)[C@H]([C@@H](C)O)NC1=O,40 isolates,32 µg/mL
CCOC(=O)c1sc2cc(-c3cccc([N+](=O)[O-])c3)oc(=O)c2c1N,SKF,>100 µg/mL
CCC(C)CC(C)CCCCCCCCC(=O)N[C@H]1C[C@@H](O)[C@@H](OCCN)NC(=O)[C@@H]2C[C@@H](O)CN2C(=O)[C@H]([C@H](O)CCN)NC(=O)[C@H]([C@H](O)[C@@H](O)c2ccc(O)cc2)NC(=O)[C@@H]2C[C@@H](O)CN2C(=O)[C@H]([C@@H](C)O)NC1=O,40 isolates,32–64 µg/mL
CCOC(=O)c1sc(SC)cc1-c1ccc(Cl)cc1,SKF,>100 µg/mL
CO[C@@H]1C[C@H](C[C@@H](C)[C@@H]2CC(=O)[C@H](C)/C=C(\C)[C@@H](O)[C@@H](OC)C(=O)[C@H](C)C[C@H](C)/C=C/C=C/C=C(\C)[C@@H](N(O)C(=O)N(C)C)C[C@@H]3CC[C@@H](C)[C@@](O)(O3)C(=O)C(=O)N3CCCC[C@H]3C(=O)O2)CC[C@H]1C(=O)ON(C)O,579A,100 µg/mL
Cn1c(=O)c(-c2[nH][nH]c(=O)c2C=Nc2ccc(Cl)cc2)c(O)c2ccccc21,ATCC 10231,25 µg/mL
CCCCCOc1ccc(-c2ccc(-c3ccc(C(=O)N[C@H]4CCCNC(=O)C5CN(C(=O)OCc6ccccc6)CN5C(=O)C(C(C)O)NC(=O)C(CCc5ccc(O)cc5)NC(=O)C5C[C@@H](O)CN5C(=O)C(C(C)O)NC4=O)cc3)cc2)cc1,ATCC CCH442,100 µg/mL
CO[C@@H]1C[C@H](C[C@@H](C)[C@@H]2CC(=O)[C@H](C)/C=C(\C)[C@@H](O)[C@@H](OC)C(=O)[C@H](C)C[C@H](C)/C=C/C=C/C=C(\C)[C@H](N(O)C(=O)N(C)C)C[C@@H]3CC[C@@H](C)[C@@](O)(O3)C(=O)C(=O)N3CCCC[C@H]3C(=O)O2)CC[C@H]1C(=O)ON(C)O,10231,100 µg/mL
CCCCCOc1ccc(-c2ccc(-c3ccc(C(=O)N[C@H]4CCCNC(=O)[C@@H]5C[C@H](N)CN5C(=O)[C@H]([C@@H](C)O)NC(=O)[C@H](Cc5ccc(O)cc5)NC(=O)[C@@H]5C[C@@H](O)CN5C(=O)[C@H]([C@@H](C)O)NC4=O)cc3)cc2)cc1,ATCC 62376,0.2 µg/mL
CCOC(=O)c1sc(SC)c(C(=O)OC)c1O,SKF,12.5 µg/mL
CCCCCOc1ccc(-c2ccc(-c3ccc(C(=O)N[C@H]4CCCNC(=O)C5C[C@H](N)CN5C(=O)C(C(C)O)NC(=O)C(Cc5ccccc5)NC(=O)C5C[C@@H](O)CN5C(=O)C(C(C)O)NC4=O)cc3)cc2)cc1,ATCC 62376,1.56 µg/mL
COC(=O)c1c(C)oc2cc(C(=O)C(Br)Br)c(O)c(Br)c12,ATCC 90028,100 µg/mL
CCCCCCCCOc1ccc(N2CCN(c3ccc(C(=O)N[C@H]4CCCNC(=O)C5C[C@H](N)CN5C(=O)C(C(C)O)NC(=O)C(c5ccc(CO)cc5)NC(=O)C5CCCN5C(=O)C(C(C)O)NC4=O)cc3)CC2)cc1,ATCC 62376,12.5 µg/mL
CSc1cc(-c2ccc(F)cc2)c(C(=O)O)s1,SKF,>100 µg/mL
Cc1ccc(N=Nc2c(-c3c(O)c4ccccc4n(C)c3=O)[nH][nH]c2=O)cc1,ATCC 10231,>100 µg/mL
CC(O)C1NC(=O)C(CCc2ccc(O)cc2)NC(=O)C2C[C@@H](O)CN2C(=O)C(C(C)O)NC(=O)[C@@H](NC(=O)c2ccc(N(C)C)cc2)CCCNC(=O)C2C[C@H](N)CN2C1=O,ATCC 62376,>100 µg/mL
OC(c1cc(-c2ccc(C(F)(F)F)cc2)nc(-c2ccc(C(F)(F)F)cc2)c1)C1CCCCN1,ATCC 90028,0.4 µg/mL